Pooled drug test results. Numbers come from NIAID ChemDB, via PubChem.

Common to all: toxicity to cultured cells; cell line: Huh7; read-out: CC50

CCn: concentration that lowers growth or viability of the cells by n%.

| compound | method | result |
|---|---|---|
| CCOC(=O)c1c(CSc2cccs2)n(C)c2cc(Br)c3c(c12)CN(C)CO3 | ATP | 20.1 µM |
| CCCC(NC(=O)[C@@H]1C2CCCC2CN1C(=O)[C@@H](NC(=O)[C@@H](NC(=O)c1cnccn1)C1CCCCC1)C(C)(C)C)C(=O)C(=O)N[C@@H](C)CC | - | 53.7 µM |
| COCCNc1nc(N)nc2ccc(-c3ccc(NC(=O)OC)cc3)nc12 | - | >20 µM |
| CCCCCCC/C(CCCCCC/C=C/[C@H](C(=O)N[C@@H](Cc1ccc(OCC=C(C)C)cc1)C(=O)O)[C@@](O)(CC(=O)O)C(=O)O)=N\OCCN | - | >22 µM |
| CCOc1nc(N)nc2ncc(-c3ccc(OC)c(F)c3)nc12 | - | >20 µM |
| NC(=O)[C@@H]1O[C@@H]1C(=O)O | MTT | >100 µM |
| O=C(NCc1cccs1)c1cc2nc(-c3ccco3)cc(C(F)(F)Cl)n2n1 | MTT | >0.454 µM |
| CCOc1nc(N)nc2ccc(-c3ccc(Nc4nccs4)cc3)nc12 | - | 10–20 µM |
| CCCCCCCC(=O)CCCCCC/C=C/[C@H](C(=O)N[C@@H](Cc1ccc(OCC#CCC#CC(C)(C)C)cc1)C(=O)O)[C@@](O)(CC(=O)O)C(=O)O | - | >1 µM |
| CCCC(NC(=O)[C@@H]1[C@H]2CCC[C@H]2CN1C(=O)[C@@H](NC(=O)[C@@H](NC(=O)c1cnccn1)C(C)(C)C)C(C)(C)C)C(=O)C(=O)NC1CC1 | - | >100 µM |
| CCNc1ncnc2ccc(-c3ccc(F)cc3)cc12 | - | >20 µM |
| O=c1ccn([C@@H]2O[C@H](CO)[C@@H](O)[C@H]2O)c(=S)[nH]1 | MTS | >100 µM |
| CCOc1nc(N)nc2ccc(-c3ccc(C(=O)NCC(C)C)cc3)nc12 | - | >20 µM |
| COCCOC(=O)NC(=S)Nc1ccc(Oc2ccc(Cl)cc2)c(Cl)c1 | MTS | 25.3 µM |
| Nc1ccn([C@@H]2C[C@H](CO)[C@@H](O)C23CC3)c(=O)n1 | XTT | 40.6 µM |
| CCCC(NC(=O)[C@@H]1C2CCCC2CN1C(=O)[C@@H](NC(=O)[C@@H](NC(=O)c1cnccn1)C1CCCCC1)C(C)(C)C)C(=O)C(=O)NC1CC1 | - | 86.5 µM |
| COc1ccc(-c2cnc3nc(N)nc(N4CCN(C(=O)Nc5ccccc5)CC4)c3n2)cc1OC | ATP | <10 µM |
| COc1ccc(Sc2ccc(C)cc2Nc2ncnc3nc(C)ccc23)cc1 | MTT | 28.6 µM |
| Cc1ccc(Oc2ccc(C[C@H](NC(=O)[C@@H](/C=C/CCCCCCC(=O)CCC3CCCCC3)[C@@](O)(CC(=O)O)C(=O)O)C(=O)O)cc2)cc1 | - | >1 µM |
| Cc1ccc(Sc2ccc(O)cc2)c(Nc2ncnc3nc(C)ccc23)c1 | MTT | >100 µM |
| COc1ccc(-c2cnc3nc(N)nc(N4CCN(CC5CCCO5)CC4)c3n2)cc1OC | ATP | >20 µM |
| C=C1C(=O)O[C@@H]2[C@H]1CC[C@H](COC(=O)CC(C)C)[C@]1(O)CCC(=O)[C@@]21C | - | >2 µM |
| Nc1ccc(Oc2ccc(/C=C(\NC(=O)CCC3CCCC3)C(=O)O)cc2)c(C(F)(F)F)c1 | - | >100 µM |
| CCCCCCCC(=O)CCCCCC/C=C/[C@H](C(=O)N[C@@H](Cc1ccc(-c2cccc(Cl)c2)cc1)C(=O)O)[C@@](O)(CC(=O)O)C(=O)O | - | >1 µM |
| CC(C)(C)C(=O)OCOP(=O)(CC[C@H]1O[C@@H](n2ccc(=O)[nH]c2=O)[C@](C)(F)[C@@H]1O)OCOC(=O)C(C)(C)C | absorbance | >10 µM |
| COc1ccc(-c2cnc3nc(N)nc(N4CCN(C(=O)NCc5ccc(F)cc5)CC4)c3n2)cc1OC | ATP | <10 µM |
| Nc1ncnc2c1c(Cl)nn2[C@@H]1C=C(CO)[C@@H](O)[C@H]1O | tetrazolium | >100 µM |
| Oc1ccc(C23CCCC2C2(CCCC2)c2ccc(O)cc2O3)c(O)c1 | MTS | 27.1 µM |
| CCCC(NC(=O)[C@@H]1C[C@@H](OC(=O)N2CCc3ccccc3C2)CN1C(=O)[C@H](NC(=O)[C@H](NC(=O)c1cnccn1)C(C)C)C(C)C)C(=O)C(=O)N[C@@H](C)c1ccccc1 | - | 16 µM |
| CCOC(=O)c1c(CSc2ccccc2)n(C)c2cc(Br)c(O)c(CN(C)C)c12.Cl | ATP | 13.6 µM |
| CCOc1nc(N)nc2ccc(-c3ncc(N)s3)nc12 | - | 10–20 µM |
| Nc1nc(Nc2ccccc2)c2cc(-c3ccc(F)cc3)ccc2n1 | - | <10 µM |
| CC1CCC(C(=O)N(c2cc(-c3ccccc3)sc2C(=O)O)C(C)C)CC1 | - | 77 µM |
| Nc1ncnc2c1ncn2[C@@H]1C[C@H](CO)[C@@H](CO)C12CC2 | XTT | >50 µM |
| CCOC(=O)c1c(CSc2ccccc2)n(C)c2cc(N=[N-])c3c(c12)CN(C)CO3 | ATP | 12 µM |
| NC(=O)[C@@H]1O[C@@H]1C(=O)Nc1ccc(Br)c(Cl)c1 | MTT | 2 µM |
| COc1ccc(C(=O)O/N=C(\N)Cc2ccc([N+](=O)[O-])cc2)c(OC)c1 | MTS | 45.1 µM |
| CC1(n2cc3c4c(ncnc42)N(CCO)N=C3N)O[C@H](CO)[C@@H](O)[C@H]1O | - | >300 µM |
| CCOC(=O)c1c(CSc2ccccc2)n(C)c2cc(C#N)c(O)c(CN(N(C)C)N(C)C)c12 | ATP | 51.6 µM |
| CCCNc1ncnc2ccc(-c3ccc(F)cc3)cc12 | - | >20 µM |
| Nc1nc(N2CCOCC2)c2nc(-c3ccc(C(F)(F)F)cc3Cl)cnc2n1 | - | 10–20 µM |
| CN1CCCC1CCNC(=O)c1ccc(-c2ccc3nc(N)nc(O[C@H]4CCOC4)c3n2)cc1 | - | >20 µM |
| CS(=O)(=O)Nc1ccc2c(c1)S(=O)(=O)N=C(c1c(O)c3ccccc3n(NC3CCC3)c1=O)N2 | MTT | >10 µM |
| Nc1nc(N2CCOCC2)c2nc(-c3ccc4c(c3)CC(=O)N4)cnc2n1 | - | 10–20 µM |
| NC(=O)[C@@H]1O[C@@H]1C(=O)Nc1ccc(OCc2ccccc2)c(Cl)c1 | MTT | 12.6 µM |
| C=C1[C@H](CO)[C@@H](O)C[C@@H]1n1cnc2c(=O)[nH]c(N)nc21 | MTT | 28 µM |
| Cc1ccc(/C(N)=N/OC(=O)N2CCOCC2)cc1 | MTS | 48.8 µM |
| C=C1C(COP(=O)(N[C@@H](C)C(=O)OC)Oc2ccccc2)C(O)C(F)C1n1cnc2c(N)ncnc21 | MTT | >300 µM |
| CCOc1nc(N)nc2ccc(-c3ccc(NC(=O)[C@@H](N)CO)cc3)nc12 | - | >20 µM |
| Cc1nc(N)nc(N[C@@H]2C[C@H](CO)[C@@H](O)[C@H]2O)c1-c1nc2ccccc2s1 | MTS | 18 µM |
| COc1ccc(-c2ccc3nc(N)nc(N4CCOCC4)c3c2)cc1OC | - | <10 µM |
| CCC[C@H](NC(=O)[C@@H]1[C@H]2CCC[C@H]2CN1C(=O)[C@@H](NC(=O)[C@@H](NC(=O)c1cnccn1)C1CCCCC1)C(C)(C)C)C(=O)C(=O)N[C@@H](C)Cc1ccc(C)cc1 | - | 63 µM |
| COc1ccc(N(Cc2c(Cl)cccc2Cl)S(=O)(=O)c2cccc(C#N)c2)cc1C(=O)O | absorbance | 25 µM |
| COCCCOc1nc(N)nc2c1ncn2[C@@H]1O[C@H](COP(=O)(N[C@@H](C)C(=O)OCC(C)(C)C)Oc2cccc3ccccc23)[C@@H](O)[C@@]1(C)O | - | 0.12 µM |
| CC(C)(C)OC(=O)CCNC(=O)Nc1nc2c(s1)-c1nc(-c3ccccc3Cl)ncc1CC2 | - | 10 µM |
| CCC[C@H](NC(=O)[C@@H]1[C@H]2CCC[C@H]2CN1C(=O)[C@@H](NC(=O)[C@@H](NC(=O)c1cnccn1)C1CCCCC1)C(C)(C)C)C(=O)C(=O)N[C@@H](C)Cc1ccccc1 | - | 34.4 µM |
| CCC(=O)Nc1ccc(-c2ccc3nc(N)nc(N4CCS(=O)(=O)CC4)c3n2)cc1 | - | <10 µM |
| NC(=O)[C@@H]1O[C@@H]1C(=O)Nc1ccc(Oc2ccc(N)cc2)cc1 | MTT | >100 µM |
| CCOC(=O)c1c(CSc2ccccc2)n(C)c2cc(Br)c(O)c(CN(N3CCN(CCO)CC3)N3CCN(CCO)CC3)c12 | ATP | 26.7 µM |
| CC(=O)NC1=NN(CCO)c2ncnc3c2c1cn3C1(C)O[C@H](CO)[C@@H](O)[C@H]1O | - | 200 µM |
| Cc1nc(NCc2ccccc2)nc(N[C@@H]2C[C@H](CO)[C@@H](O)[C@H]2O)c1-c1nc2ccccc2s1 | MTS | 0.03 µM |
| CCCCCCCC(=O)CCCCCC/C=C/[C@H](C(=O)N[C@@H](Cc1ccc(-c2cccc(OC)n2)cc1)C(=O)O)[C@@](O)(CC(=O)O)C(=O)O | - | >1 µM |
| C=C1C(=O)O[C@@H]2[C@H]1CC[C@H](COC(=O)CC)[C@]1(O)CCC(=O)[C@@]21C | - | >2 µM |
| COc1ccc(/C(N)=N/OC(=O)N2CCOCC2)cc1 | MTS | 63.3 µM |
| CCOC(=O)c1c(CSc2ccccc2)n(C)c2cc(-c3cccnc3)c3c(c12)CN(C)CO3 | ATP | 29.8 µM |
| NC(=O)[C@@H]1O[C@@H]1C(=O)Nc1ccc(Br)cc1 | MTT | 17 µM |
| Fc1ccc(-c2ccc3ncnc(N4CCOCC4)c3c2)cc1 | - | >20 µM |
| Nc1nc(N2CCOCC2)c2nc(-c3cccc(F)c3F)cnc2n1 | - | >20 µM |
| CCC[C@H](NC(=O)[C@@H]1[C@H]2CCC[C@H]2CN1C(=O)[C@@H](NC(=O)[C@@H](NC(=O)c1cnccn1)C1CCCCC1)C(C)(C)C)C(=O)C(=O)N[C@@H](C)C1CCCCC1 | - | >100 µM |
| COC1=CC(=O)C[C@@H](C)[C@]12Oc1c(Cl)c(OC)cc(OC)c1C2=O | - | 218 µM |
| COc1ccnc2[nH]cc(C(=O)C(=O)N3CCN(C(=O)c4ccccc4)C[C@H]3C)c12 | - | >225 µM |
| COc1ccc(-c2cnc3nc(N)nc(N4CCN(C(C)c5ccccc5)CC4)c3n2)cc1OC | ATP | <10 µM |
| Cc1ccc(Sc2ccc(O)cc2)c(Nc2ncnc3nc(C(C)C)ccc23)c1 | MTT | 22.9 µM |
| CCOc1nc(N)nc2ccc(-c3cccc(NS(=O)(=O)CC(F)(F)F)c3)nc12 | - | >20 µM |
| Nc1ncnc2c1cnn2[C@@H]1C=C(CO)[C@@H](O)[C@H]1O | tetrazolium | >100 µM |

9 of the rows above, restated:

compound,method,result
Nc1ncnc2c1ncn2[C@@H]1C[C@H](CO)[C@@H](CO)C12CC2,XTT,>50 µM
CCC[C@H](NC(=O)[C@@H]1[C@H]2CCC[C@H]2CN1C(=O)[C@@H](NC(=O)[C@@H](NC(=O)c1cnccn1)C1CCCCC1)C(C)(C)C)C(=O)C(=O)N[C@@H](C)Cc1ccccc1,-,34.4 µM
NC(=O)[C@@H]1O[C@@H]1C(=O)Nc1ccc(Oc2ccc(N)cc2)cc1,MTT,>100 µM
COc1ccc(-c2cnc3nc(N)nc(N4CCN(C(=O)Nc5ccccc5)CC4)c3n2)cc1OC,ATP,<10 µM
Nc1ncnc2c1c(Cl)nn2[C@@H]1C=C(CO)[C@@H](O)[C@H]1O,tetrazolium,>100 µM
COc1ccc(-c2cnc3nc(N)nc(N4CCN(C(C)c5ccccc5)CC4)c3n2)cc1OC,ATP,<10 µM
Nc1ccn([C@@H]2C[C@H](CO)[C@@H](O)C23CC3)c(=O)n1,XTT,40.6 µM
CCC[C@H](NC(=O)[C@@H]1[C@H]2CCC[C@H]2CN1C(=O)[C@@H](NC(=O)[C@@H](NC(=O)c1cnccn1)C1CCCCC1)C(C)(C)C)C(=O)C(=O)N[C@@H](C)Cc1ccc(C)cc1,-,63 µM
C=C1C(=O)O[C@@H]2[C@H]1CC[C@H](COC(=O)CC)[C@]1(O)CCC(=O)[C@@]21C,-,>2 µM

Blank or dashed fields: not listed here. Lines come from different laboratories, so protocols vary. Two numbers with a dash give a range or band.